Source: PubChem BioAssay AID624099 (ICCB-Longwood, 2012)
Assay: 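Human genes that papillomavirus E2 requires to repress the HPV18 LCR promoter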 (primary screen). Cells: human C33A cervical carcinoma cells (HPV-negative) stably expressing BPV1 E2 and an HPV18 LCR luciferase reporter. Reagents: siRNA pool against human genes, 40 nM. Timing: 72 h. Detection: 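HPV18 LCR reporter light per well, converted to plate-wise z-scores that exclude control wells, and averaged over triplicate plates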. Reading the numbers: mean z-score and z-score: higher = stronger reporter signal, weaker E2 silencing. Hit rule: 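Mean z ≥ 2 together with z ≥ 2 in two or more of the three replicates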.
This is an unselected part of about 21,000 deposited reagents. 497 of them (2.4%) were called active. 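Higher z means weaker E2 silencing; only reporter increases were scored, and knock-downs that hurt cell survival may mask genuine repressor factors.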 No sequences are given here.

PDGFRA: mean z-score = 0.05; z-score, replicate A = -0.12; z-score, replicate B = 0.08; z-score, replicate C = 0.2; Call = inactive
HTATIP2: mean z-score = -0.09; z-score, replicate A = -0.14; z-score, replicate B = 0; z-score, replicate C = -0.14; Call = inactive
SEC31B: mean z-score = -1.01; z-score, replicate A = -0.93; z-score, replicate B = -0.87; z-score, replicate C = -1.24; Call = inactive
LOC132706 (retired record): mean z-score = -0.22; z-score, replicate A = -0.13; z-score, replicate B = -0.48; z-score, replicate C = -0.03; Call = inactive
UFM1: mean z-score = 0.23; z-score, replicate A = 0.38; z-score, replicate B = 0.03; z-score, replicate C = 0.29; Call = inactive
CACNB4: mean z-score = -1.87; z-score, replicate A = -2.02; z-score, replicate B = -1.76; z-score, replicate C = -1.81; Call = inactive
SH2B1: mean z-score = -1.47; z-score, replicate A = -1.39; z-score, replicate B = -1.52; z-score, replicate C = -1.5; Call = inactive
LOC393076 (retired record): mean z-score = -1.25; z-score, replicate A = -1.41; z-score, replicate B = -1.26; z-score, replicate C = -1.06; Call = inactive
ARHGAP15: mean z-score = 0.46; z-score, replicate A = 0.41; z-score, replicate B = 0.49; z-score, replicate C = 0.49; Call = inactive
LOC402523 (retired record): mean z-score = 0.54; z-score, replicate A = 0.76; z-score, replicate B = 0.39; z-score, replicate C = 0.45; Call = inactive
GLT8D1: mean z-score = -0.3; z-score, replicate A = -0.41; z-score, replicate B = -0.36; z-score, replicate C = -0.15; Call = inactive
C8orf82: mean z-score = 0.26; z-score, replicate A = -0.01; z-score, replicate B = 0.44; z-score, replicate C = 0.35; Call = inactive
LOC389815 (retired record): mean z-score = -0.12; z-score, replicate A = 0.29; z-score, replicate B = -0.17; z-score, replicate C = -0.49; Call = inactive
OR10G8: mean z-score = 0.42; z-score, replicate A = 0.57; z-score, replicate B = 0.81; z-score, replicate C = -0.12; Call = inactive
LOC388604 (retired record): mean z-score = -0.07; z-score, replicate A = -0.01; z-score, replicate B = -0.26; z-score, replicate C = 0.07; Call = inactive
AIRIM: mean z-score = -0.87; z-score, replicate A = -0.73; z-score, replicate B = -0.55; z-score, replicate C = -1.35; Call = inactive
PRPF39: mean z-score = -0.54; z-score, replicate A = -0.54; z-score, replicate B = -0.29; z-score, replicate C = -0.8; Call = inactive
DSCR9: mean z-score = 0.1; z-score, replicate A = 0.13; z-score, replicate B = 0.18; z-score, replicate C = -0.02; Call = inactive
TNFSF18: mean z-score = 0.58; z-score, replicate A = 0.81; z-score, replicate B = 0.69; z-score, replicate C = 0.23; Call = inactive
LOC388300 (retired record): mean z-score = -0.37; z-score, replicate A = -0.09; z-score, replicate B = -0.7; z-score, replicate C = -0.31; Call = inactive
PCDHGA5: mean z-score = -0.85; z-score, replicate A = -1.53; z-score, replicate B = -0.59; z-score, replicate C = -0.41; Call = inactive

Limited to “z-score, replicate B”, for 2 of the entries above:
LOC388300 (retired record) = -0.7
PCDHGA5 = -0.59
